US12570608B2, “Compound derived from quinoline, use of a compound, composition and method for the treatment or prophylaxis of a condition caused by a blood parasite” (FUNDÃÇAO OSWALDO CRUZ, priority 2019, dated 2026)

Test system: β-hematin formation
Experiment: Inhibition of β-hematin formation (lipid-catalysed heme crystallization)
Format: biochemical
Conditions: fold higher than observed for CQ

Compound: NCCNc1ccnc2cc(Cl)ccc12 [CEQ]
- β-hematin inhibitory concentration relative to CQ: 1.6 fold
